Measured values published in PMC6104695 (Virulence, 2017).
Converted amounts (≈) assume the structure as drawn.

System: B. anthracis Sterne vegetative bacteria
Conditions: 24 h

CC[C@H](C)[C@H](NC(=O)[C@@H](NC(=O)[C@H](CCCCN)NC(=O)[C@@H]1CCCN1C(=O)[C@H](CCCCN)NC(=O)[C@H](CCCCN)NC(=O)[C@H](Cc1ccccc1)NC(=O)[C@H](Cc1ccccc1)NC(=O)[C@H](CCCCN)NC(=O)[C@H](CCCCN)NC(=O)[C@H](C)NC(=O)[C@H](CCCNC(=N)N)NC(=O)[C@H](CCCCN)NC(=O)[C@H](CCCCN)NC(=O)[C@@H](NC(=O)[C@H](CO)NC(=O)[C@H](CC(N)=O)NC(=O)[C@H](CCCCN)NC(=O)[C@H](CC(C)C)NC(=O)[C@H](CCCCN)NC(=O)[C@H](CCCCN)NC(=O)[C@H](Cc1ccccc1)NC(=O)[C@H](Cc1ccccc1)NC(=O)[C@H](CCCCN)NC(=O)[C@H](CCCCN)NC(=O)[C@H](Cc1ccccc1)NC(=O)[C@H](CCCNC(=N)N)NC(=O)[C@@H](N)CCCCN)C(C)C)C(C)C)C(=O)NCC(=O)N[C@H](C(=O)N[C@H](C(=O)N[C@@H](Cc1ccccc1)C(=O)N1CCC[C@H]1C(=O)N[C@@H](Cc1ccccc1)C(=O)O)[C@@H](C)O)C(C)C [NA-CATH]
MIC: 3.83 µM (≈ 16 µg/mL)
